Compound potency records, mixed from different reports. Data source: NIAID ChemDB in PubChem.

All rows: target-level tests; species: Hepatitis C virus; protein: NS5B polymerase; endpoint: IC50

a–b is a range or a potency band. ICn: concentration for n% inhibition. Blank or dashed fields: not listed here. Rows are shuffled and stem from different studies.

smiles | strain or isolate | result
O=C(O)/C(=C/c1ccc(-c2ccccc2Cl)s1)NC(=O)c1cc(O)ccc1O |  | >30 µM
COC(=O)[C@H](Cc1c[nH]c2ccc(OCC(=O)O)cc12)NC(=O)c1ccc2c(c1)nc(-c1ccccn1)n2C1CCCCC1 |  | <1 µM
COc1cc(C(=O)N2[C@@H](c3nccs3)[C@@H](c3cnccn3)C[C@@]2(Cc2ccsn2)C(=O)O)ccc1C(C)(C)C | Genotype 1A | <0.15 µM
O=C(N[C@H](C(=O)O)c1c[nH]c2ccc(O)cc12)c1ccc2c(c1)nc(-c1cn[nH]c1)n2C1CCCCC1 |  | <1 µM
O=C(O)/C(=C/c1ccc(-c2ccccc2)o1)NC(=O)c1ccco1 |  | <10 µM
COc1cc(C(=O)N2[C@@H](c3nccs3)[C@@H](c3cnccn3)C[C@@]2(Cc2ccccc2)C(=O)O)ccc1C(C)(C)C | Genotype 1A | >1 µM
CC(C)CCN1C(=O)C(C2=NS(=O)(=O)c3ccccc3N2)=C(O)[C@@H]1C(C)C |  | 0.2 µM
O=C(Cn1nc(C(=O)N2CCCc3ccccc32)cc1C(=O)N[C@H]1CCCC[C@@H]1OCc1ccccc1)N[C@H]1CCCC[C@@H]1OCc1ccccc1 |  | 0.1–1 µM
CCN(CC)c1ccc(C2CC(=O)C3=C(C2)Nc2ccccc2N(C(C)=O)C3c2ccc(OC)cc2)cc1 |  | >42.7 µM
Cc1ccc(OCc2ccccc2)c(NC(=O)c2cc(C(=O)O)nn2CS(=O)(=O)N[C@H]2CCCC[C@@H]2OCc2ccccc2)c1 |  | 0.1–1 µM
O=C(O)/C=C/c1ccc(NC(=O)C2(NC(=O)c3ccc4c(c3)nc(-c3ccc[nH]3)n4C3CCCCC3)CCCC2)cc1 |  | <0.5 µM
O=C(O)/C(=C/c1ccc(-c2ccccc2)o1)NC(=O)c1cccnc1 |  | <10 µM
CC(=O)N1c2ccccc2NC2=C(C(=O)CC(c3ccccc3OCc3ccccc3)C2)C1c1ccccc1 |  | >42.7 µM
O=C(NC(Cc1c[nH]c2ccc(O)cc12)C(=O)O)c1ccc2c(c1)nc(-c1ccoc1)n2C1CCCCC1 |  | <1 µM
CC1(C)CC(=O)C2=C(C1)Nc1ccc(C(=O)c3ccccc3)cc1NC2c1ccc(Cl)cc1 |  | >42.7 µM
C[C@@H]1CCC[C@H](C)C1n1c(-c2ccoc2)nc2cc(C(=O)N[C@@H](Cc3c[nH]c4ccc(O)cc34)C(=O)O)ccc21 |  | <1 µM
COc1cc(C(=O)N2[C@@H](c3nccs3)[C@@H](c3cnccn3)C[C@@]2(CCS(C)(=O)=O)C(=O)O)ccc1C(C)(C)C | genotype 1b | >0.5 µM
CC(C)(C)COc1ccccc1NC(=O)c1cc(C(=O)O)nn1CC(=O)N[C@H]1CCCC[C@@H]1OCc1ccccc1 |  | 0.1–1 µM
CC(C)CCN1C(=O)C(C2=NS(=O)(=O)c3ccccc3N2)=C(O)[C@@H]1c1ccccc1 |  | 0.3 µM
CN(C)c1nc(C[C@H](Cc2ccc(OCC(=O)O)cc2)NC(=O)c2ccc3c(c2)nc(-c2ccoc2)n3C2CCCCC2)cs1 |  | 1–5 µM
CC1(C)CC(=O)C2=C(C1)Nc1ccc(C(=O)c3ccccc3)cc1NC2c1ccc(F)cc1 |  | >42.7 µM
COc1ccc(C(=O)O)cc1NC(=O)C1(NC(=O)c2ccc3c(c2)nc(-c2ccoc2)n3C2CCCCC2)CCCC1 |  | 0.5–5 µM
O=C(N[C@@H](CCc1ccc(O)cc1)C(=O)O)c1ccc2c(c1)nc(-c1ccoc1)n2C1CCCCC1 |  | <1 µM
C[C@@H](NC(=O)c1cc(C(=O)Nc2ccccc2OCc2ccccc2)n(CC(=O)N[C@H]2CCCC[C@@H]2OCc2ccccc2)n1)c1cccc2ccccc12 |  | 0.15 µM
CC(C)CCN1C(=O)C(C2=NS(=O)(=O)c3ccccc3N2)=C(O)[C@H]1C(C)C |  | 6.4 µM
COc1ccc(NC(=O)c2cc(C(=O)N[C@H]3CCCC[C@@H]3OCc3ccccc3)n(CC(=O)NC3CCCC[C@@H]3OCc3ccccc3)n2)cc1 |  | 0.05–0.1 µM
COc1cc(C(=O)N2[C@@H](c3nccs3)[C@@H](c3cnccn3)C[C@@]2(Cc2nccs2)C(=O)O)ccc1C(C)(C)C | Genotype 1A | <0.15 µM
CCC(C)Oc1ccccc1C1C2=C(CC(c3ccc(OC)c(OC)c3)CC2=O)Nc2ccccc2N1C(C)=O |  | >42.7 µM
O=C(N[C@H](C(=O)O)c1c[nH]c2ccc(O)cc12)c1ccc2c(c1)nc(-c1ccccc1)n2C1CCCCC1 |  | <1 µM
C[C@H]1CCC[C@H](C)C1n1c(-c2ccc[nH]2)nc2cc(C(=O)NC3(C(=O)Nc4ccc(/C=C/C(=O)O)cc4)CCCC3)ccc21 |  | 0.5–5 µM
O=C(N[C@H](C(=O)O)c1c[nH]c2ccc(O)cc12)c1ccc2c(c1)nc(-c1nc3ccccc3[nH]c1=O)n2C1CCCCC1 |  | 5–10 µM
COc1cc(C(=O)N2[C@@H](c3ncc(C)s3)[C@@H](c3cnccn3)C[C@@]2(Cn2cccn2)C(=O)O)ccc1C(C)(C)C | genotype 1b | <0.1 µM
O=C(N[C@H](C(=O)O)c1c[nH]c2ccc(O)cc12)c1ccc2c(c1)nc(C(F)(F)F)n2C1CCCCC1 |  | 1–5 µM
CC(C)CCN1C(=O)C(C2=NS(=O)(=O)c3ccccc3N2)=C(O)[C@@H]1C |  | 1.44 µM
Nc1nc(C[C@H](Cc2ccc(OCC(=O)O)cc2)NC(=O)c2ccc3c(c2)nc(-c2ccoc2)n3C2CCCCC2)cs1 |  | <1 µM
CCC(C)[C@H]1C(O)=C(C2=NS(=O)(=O)c3ccccc3N2)C(=O)N1CCC(C)C |  | 0.55 µM
Cc1cc(-c2nc3cc(C(=O)N[C@H](C(=O)O)c4c[nH]c5ccc(O)cc45)ccc3n2C2CCCCC2)on1 |  | <1 µM
O=C1CC(c2ccccc2)CC2=C1C(c1ccccc1OCc1ccccc1)Nc1ccccc1N2 |  | >27.34 µM
COc1cccc(-c2nc3cc(C(=O)N[C@H](C(=O)O)c4c[nH]c5ccc(O)cc45)ccc3n2C2CCCCC2)c1O |  | 1–5 µM
O=C(O)/C(=C/c1ccc(-c2ccccc2Cl)s1)NC(=O)c1ccccc1 |  | <10 µM
C=CCC(C)(C)c1nc2cc(C(=O)N[C@H](C(=O)O)c3c[nH]c4ccc(O)cc34)ccc2n1C1CCCCC1 |  | 10–25 µM
CC(C)CCN1C(=O)C(C2=NS(=O)(=O)c3ccccc3N2)=C(O)C1(C)C |  | 5.07 µM
O=C(O)COc1ccc2[nH]cc(C[C@H](NC(=O)c3ccc4c(c3)nc(-c3ccc(C(=O)NCCNC(=S)Nc5ccc(-c6c7ccc(=O)cc-7oc7cc(O)ccc67)cc5C(=O)O)cc3)n4C3CCCCC3)C(=O)O)c2c1 |  | <1 µM
CCC[C@]1(CC(=O)O)OCCc2c1[nH]c1c(C)ccc(C#N)c21 | 207-247 genotype 1A | 1 µM
Cc1nc(C)c(-c2nc3cc(C(=O)N[C@H](C(=O)O)c4c[nH]c5ccc(O)cc45)ccc3n2C2CCCCC2)s1 |  | 1–5 µM
Cc1ccc(OCc2ccccc2)c(NC(=O)c2cc(C(=O)O)nn2CC(=O)N[C@H]2CCCC[C@@H]2OCc2ccccc2)c1 |  | 0.041 µM

For reference, 4 entries again:

smiles	strain or isolate	result
CC(=O)N1c2ccccc2NC2=C(C(=O)CC(c3ccccc3OCc3ccccc3)C2)C1c1ccccc1		>42.7 µM
COc1ccc(C(=O)O)cc1NC(=O)C1(NC(=O)c2ccc3c(c2)nc(-c2ccoc2)n3C2CCCCC2)CCCC1		0.5–5 µM
C[C@@H]1CCC[C@H](C)C1n1c(-c2ccoc2)nc2cc(C(=O)N[C@@H](Cc3c[nH]c4ccc(O)cc34)C(=O)O)ccc21		<1 µM
CCC[C@]1(CC(=O)O)OCCc2c1[nH]c1c(C)ccc(C#N)c21	207-247 genotype 1A	1 µM